Pooled drug test results. Numbers come from NIAID ChemDB, via PubChem.

All rows: whole-cell or culture tests; agent: HIV-1; cell line: MT-4; measure: EC50

ECn: concentration that inhibits the pathogen or its effect by n%. An empty or dashed field is not shown. Neighbouring rows are from separate reports.

compound,strain or isolate,changes,read by,conditions,result
Cc1cc(-c2ccc(C#N)cc2)cc(C)c1Oc1ccnc(S(=O)(=O)C(C)C(=O)Nc2ccc(C#N)cc2)n1,IIIB,Y181C,MTT,,0.242 µM
NC(=O)CC[C@H](NC(=O)COc1cccc(NC(=O)[C@@H](N)Cc2ccc(O)cc2)c1)C(=O)N[C@@H](Cc1c[nH]c2ccccc12)C(=O)N[C@@H](CC(=O)O)C(=O)N[C@@H](Cc1ccccc1)C(=O)NCC(=O)O,GUN1 WT,,syncytia,,>100 µg/mL
C=CCOC(=O)OC[C@H]1O[C@@H](n2cc(C)c(=O)n(C)c2=O)[C@H](O[Si](C)(C)C(C)(C)C)C12OS(=O)(=O)C=C2N,,,,,>10 µM
O=C(NCc1ccc(F)cc1)C1C(=O)N(O)C(=O)c2ccccc21,IIIB,,MTT,,2.34 µM
C[C@@H](NS(=O)(=O)c1ccc(Cl)cc1)C(=O)NN,IIIB,,cytopathic effect,,>113 µg/mL
Cc1cc(-c2ccc(C#N)cc2)cc(C)c1Oc1ccnc(S(=O)(=O)C(C)C(=O)NCc2ccc(Cl)cc2)n1,IIIB,,MTT,,>12.18 µM
C[C@@H]1CCO[C@H]2Cn3cc(C(=O)NCc4ccc(F)cc4F)c(=O)c(O)c3C(=O)N12,NL4-3,,luminescence,,0.0026 µM
COc1ccc(S(=O)(=O)NCCCc2n[nH]c(=S)o2)cc1,IIIB,,cytopathic effect,,>110 µg/mL
COC(=O)c1ccc(CN2CCC(Nc3nc(Oc4c(C)cc(C#N)cc4C)c4ccsc4n3)CC2)cc1,IIIB,NNRTI-resistant (RT Y181C),MTT,,0.0907 µM
C=C1O[C@@H](n2cc(C)c(=O)n(C)c2=O)[C@H](O[Si](C)(C)C(C)(C)C)[C@]12OS(=O)(=O)C=C2N,,,,,3.49 ± 1.57 µM
CC(=O)N[C@@H](Cc1ccc(O)cc1)C(=O)N[C@H]1CSSC[C@@H](C(=O)O)NC(=O)[C@H](CCCCN)NC(=O)[C@H](CCCCN)NC1=O,NL4-3,,RT activity,6 d,>2.5 µM
Cc1cn([C@@H]2O[C@H](CN3CCN(Cc4ccccc4)CC3)C3(OS(=O)(=O)C=C3N)[C@H]2O[Si](C)(C)C(C)(C)C)c(=O)n(C)c1=O,,,,,>10 µM
CC[C@@H](NS(=O)(=O)c1ccc(Cl)cc1)c1n[nH]c(=S)o1,IIIB,,cytopathic effect,,>122 µg/mL
Cc1cc(-c2ccc(C#N)cc2)cc(C)c1Oc1ccnc(S(=O)(=O)CC(=O)NCCc2ccc(Cl)cc2)n1,IIIB,,MTT,,>8.27 µM
CC(=O)N[C@H]1CSSC[C@@H](C(=O)N[C@@H](CCC(N)=O)C(=O)O)NC(=O)[C@H](Cc2cnc[nH]2)NC(=O)[C@H](Cc2ccc(O)cc2)NC1=O,NL4-3,,RT activity,6 d,<2.5 µM
Cc1cc(/C=C/C#N)cc(C)c1Oc1nc(NC2CCN(Cc3cccc(Cl)c3)CC2)nc2ccsc12,RES056,,MTT,,0.148 µM
O=S(=O)(NCCCc1n[nH]c(=S)o1)c1ccc(Cl)cc1,IIIB,,cytopathic effect,,>70 µg/mL
CCOC(=O)C(C)NCc1cc2cc(S(=O)(=O)N(CC(C)C)C[C@@H](O)[C@H](Cc3ccccc3)NC(=O)O[C@H]3CO[C@H]4OCC[C@H]43)ccc2o1,HXB2 Recombinant,,cytopathic effect / MTT,,0.03 µM
Cc1ccc(CN2CCC(Nc3nc(Oc4c(C)cc(/C=C/C#N)cc4C)c4sccc4n3)CC2)cc1,IIIB,NNRTI-resistant (RT Y181C),MTT,,0.0297 µM
Cc1cc(C#N)cc(C)c1Oc1ccnc(S(=O)(=O)CC(=O)Nc2ccc(C#N)cc2)n1,IIIB,K103N,MTT,,0.003 µM
Cc1cc(C#N)cc(C)c1Oc1nc(NC2CCC(NCc3ccc(O)cc3)CC2)nc2ccsc12,IIIB,NNRTI-resistant (RT L100I),MTT,,>20.1 µM
Cc1cc(-c2ccc(C#N)cc2)cc(C)c1Oc1ccnc(S(=O)(=O)CC(=O)NCc2ccc(C#N)cc2)n1,IIIB,,MTT,,1.28 µM
COP(=O)(c1cc(C)cc(CCC#N)c1)c1c(C(N)=O)[nH]c2ccc(Cl)cc12,IIIB,K103R/V179D/P225H,cytopathic effect,,0.025 µM
Cc1cc(-c2ccc(C#N)cc2)cc(C)c1Oc1ccnc(S(=O)(=O)CC(=O)Nc2ccc(Br)cc2)n1,IIIB,E138K,MTT,,0.091 µM
Cc1cn([C@@H]2O[C@H](CN3CCNCC3)C3(OS(=O)(=O)C=C3N)[C@H]2O[Si](C)(C)C(C)(C)C)c(=O)n(C)c1=O,,,,,≥50 µM
CCC(C)Nc1n[nH]c2ccc(S(=O)(=O)N(CC(C)C)C[C@@H](O)[C@H](Cc3ccccc3)NC(=O)O[C@H]3CO[C@H]4OCC[C@H]43)cc12,HXB2 Recombinant,,cytopathic effect / MTT,,0.01 µM
Cc1cc(/C=C/C#N)cc(C)c1Oc1ccnc(S(=O)(=O)CC(=O)Nc2ccc(Cl)cc2)n1,IIIB,Y188L,MTT,,0.494 µM
Cc1cc(/C=C/C#N)cc(C)c1Oc1nc(NC2CCN(Cc3cccc(C#N)c3)CC2)nc2ccsc12,IIIB,NNRTI-resistant (RT K103N),MTT,,0.00602 µM
Cc1cc(-c2ccc(C#N)cc2)cc(C)c1Oc1ccnc(S(=O)(=O)CC(=O)Nc2ccc(Cl)cc2)n1,IIIB,K103N,MTT,,0.056 µM
COc1ccc(-c2nnc(-c3ccc(N)cc3)o2)cc1,IIIB,,cytopathic effect,,>98 µg/mL
CN(C)c1ccc(Nc2c3ccc(NC(=O)CCN4CCCC4)cc3nc3cc(NC(=O)CCN4CCCC4)ccc23)cc1,IIIB,,p24 / ELISA / antigen,,2.9 µM
Cc1cc(C#N)cc(C)c1Oc1nc(NC2CCN(Cc3ccc(S(N)(=O)=O)cc3)CC2)nc2sccc12,IIIB,NNRTI-resistant (RT K103N),MTT,,0.00328 µM
Cc1cc(-c2ccc(C#N)cc2)cc(C)c1Oc1ccnc(S(=O)(=O)CC(=O)Nc2ccc(F)cc2)n1,IIIB,Y188L,MTT,,1.981 µM

The last 4 rows once more:

compound | strain or isolate | changes | read by | conditions | result
COc1ccc(-c2nnc(-c3ccc(N)cc3)o2)cc1 | IIIB |  | cytopathic effect |  | >98 µg/mL
CN(C)c1ccc(Nc2c3ccc(NC(=O)CCN4CCCC4)cc3nc3cc(NC(=O)CCN4CCCC4)ccc23)cc1 | IIIB |  | p24 / ELISA / antigen |  | 2.9 µM
Cc1cc(C#N)cc(C)c1Oc1nc(NC2CCN(Cc3ccc(S(N)(=O)=O)cc3)CC2)nc2sccc12 | IIIB | NNRTI-resistant (RT K103N) | MTT |  | 0.00328 µM
Cc1cc(-c2ccc(C#N)cc2)cc(C)c1Oc1ccnc(S(=O)(=O)CC(=O)Nc2ccc(F)cc2)n1 | IIIB | Y188L | MTT |  | 1.981 µM